From US20250115620A1, “BRIDGED TRICYCLIC CARBAMOYLPYRIDONE COMPOUNDS AND USES THEREOF” (Gilead Sciences, Inc., priority 2022, published 2025)

Test system: pLAI reporter virus
Format: cell-based, HIV
Conditions: EC50 (50% HS)/EC50 (CCM)

Compound: C[C@H]1CC[C@]2(CC(C(C)(F)F)=NO2)[C@H]2CN1C(=O)c1c(O)c(=O)c(C(=O)NCc3c(F)cc(F)cc3F)cn12 [Example 71, (3′S,5S,7′R)-3-(1,1-difluoroethyl)-12′-hydroxy-3′-methyl-1′,11′-dioxo-N-(2,4,6-trifluorobenzyl)-1′,4′,5′,11′-tetrahydro-3′H,4H,7′H-spiro[isoxazole-5,6′-[2,7]methanopyrido[1,2-a][1,4]diazonine]-10′-carboxamide]
- RLUC 50% HS Shift: 412×

Compound: C[C@H]1CC[C@]2(CC=NO2)[C@H]2CN1C(=O)c1c(O)c(=O)c(C(=O)NCc3c(F)cc(F)cc3F)cn12 [Example 72, (3′S,5S,7′R)-12′-hydroxy-3′-methyl-1′,11′-dioxo-N-(2,4,6-trifluorobenzyl)-1′,4′,5′,11′-tetrahydro-3′H,4H,7′H-spiro[isoxazole-5,6′-[2,7]methanopyrido[1,2-a][1,4]diazonine]-10′-carboxamide]
- RLUC 50% HS Shift: 361×

Compound: C[C@H]1CC[C@]2(CC(C(F)(F)F)=NO2)[C@H]2CN1C(=O)c1c(O)c(=O)c(C(=O)NCc3c(F)cc(F)cc3F)cn12 [Example 73, (3′S,5S,7′R)-12′-hydroxy-3′-methyl-1′,11′-dioxo-N-(2,4,6-trifluorobenzyl)-3-(trifluoromethyl)-1′,4′,5′,11′-tetrahydro-3′H,4H,7′H-spiro[isoxazole-5,6′-[2,7]methanopyrido[1,2-a][1,4]diazonine]-10′-carboxamide]
- RLUC 50% HS Shift: 326×

Compound: C[C@H]1CC[C@]2(CC(N3CCC3)=NO2)[C@H]2CN1C(=O)c1c(O)c(=O)c(C(=O)NCc3c(F)cc(F)cc3F)cn12 [Example 74, (3′S,5S,7′R)-3-(azetidin-1-yl)-12′-hydroxy-3′-methyl-1′,11′-dioxo-N-(2,4,6-trifluorobenzyl)-1′,4′,5′,11′-tetrahydro-3′H,4H,7′H-spiro[isoxazole-5,6′-[2,7]methanopyrido[1,2-a][1,4]diazonine]-10′-carboxamide]
- RLUC 50% HS Shift: 12×

Compound: C[C@H]1CC[C@]2(CC(N3CCCC3)=NO2)[C@H]2CN1C(=O)c1c(O)c(=O)c(C(=O)NCc3c(F)cc(F)cc3F)cn12 [Example 75, (3′S,5S,7′R)-12′-hydroxy-3′-methyl-1′,11′-dioxo-3-(pyrrolidin-1-yl)-N-(2,4,6-trifluorobenzyl)-1′,4′,5′,11′-tetrahydro-3′H,4H,7′H-spiro[isoxazole-5,6′-[2,7]methanopyrido[1,2-a][1,4]diazonine]-10′-carboxamide]
- RLUC 50% HS Shift: 6×

Compound: C[C@H]1CC[C@]2(CC(n3cnnc3)=NO2)[C@H]2CN1C(=O)c1c(O)c(=O)c(C(=O)NCc3c(F)cc(F)cc3F)cn12 [Example 76, (3′S,5S,7′R)-12′-hydroxy-3′-methyl-1′,11′-dioxo-3-(4H-1,2,4-triazol-4-yl)-N-(2,4,6-trifluorobenzyl)-1′,4′,5′,11′-tetrahydro-3′H,4H,7′H-spiro[isoxazole-5,6′-[2,7]methanopyrido[1,2-a][1,4]diazonine]-10′-carboxamide]
- RLUC 50% HS Shift: 8×

Compound: C[C@H]1CC[C@]2(CC(n3cccn3)=NO2)[C@H]2CN1C(=O)c1c(O)c(=O)c(C(=O)NCc3c(F)cc(F)cc3F)cn12 [Example 77, (3′S,5S,7′R)-12′-hydroxy-3′-methyl-1′,11′-dioxo-3-(1H-pyrazol-1-yl)-N-(2,4,6-trifluorobenzyl)-1′,4′,5′,11′-tetrahydro-3′H,4H,7′H-spiro[isoxazole-5,6′-[2,7]methanopyrido[1,2-a][1,4]diazonine]-10′-carboxamide]
- RLUC 50% HS Shift: 35×

Compound: C[C@H]1CC[C@]2(CC(C#CC(C)(C)S(C)(=O)=O)=NO2)[C@H]2CN1C(=O)c1c(O)c(=O)c(C(=O)NCc3c(F)cc(F)cc3F)cn12 [Example 79, (3′S,5S,7′R)-12′-hydroxy-3′-methyl-3-(3-methyl-3-(methylsulfonyl)but-1-yn-1-yl)-1′,11′-dioxo-N-(2,4,6-trifluorobenzyl)-1′,4′,5′,11′-tetrahydro-3′H,4H,7′H-spiro[isoxazole-5,6′-[2,7]methanopyrido[1,2-a][1,4]diazonine]-10′-carboxamide]
- RLUC 50% HS Shift: 1×

Compound: C[C@H]1CC[C@@]2(CC(C#CC(C)(C)S(C)(=O)=O)=NO2)[C@H]2CN1C(=O)c1c(O)c(=O)c(C(=O)NCc3c(F)cc(F)cc3F)cn12 [Example 80, (3′S,5R,7′R)-12′-hydroxy-3′-methyl-3-(3-methyl-3-(methylsulfonyl)but-1-yn-1-yl)-1′,11′-dioxo-N-(2,4,6-trifluorobenzyl)-1′,4′,5′,11′-tetrahydro-3′H,4H,7′H-spiro[isoxazole-5,6′-[2,7]methanopyrido[1,2-a][1,4]diazonine]-10′-carboxamide]
- RLUC 50% HS Shift: 2×

Compound: C[C@H]1CC[C@]2(CC(C#CC(C)(C)O)=NO2)[C@H]2CN1C(=O)c1c(O)c(=O)c(C(=O)NCc3c(F)cc(F)cc3F)cn12 [Example 81, (3′S,5S,7′R)-12′-hydroxy-3-(3-hydroxy-3-methylbut-1-yn-1-yl)-3′-methyl-1′,11′-dioxo-N-(2,4,6-trifluorobenzyl)-1′,4′,5′,11′-tetrahydro-3′H,4H,7′H-spiro[isoxazole-5,6′-[2,7]methanopyrido[1,2-a][1,4]diazonine]-10′-carboxamide]
- RLUC 50% HS Shift: 1×

Compound: C[C@H]1CC[C@]2(CC(F)=NO2)[C@H]2CN1C(=O)c1c(O)c(=O)c(C(=O)NCc3c(F)cc(F)cc3F)cn12 [Example 82, (3′S,5S,7′R)-3-fluoro-12′-hydroxy-3′-methyl-1′,11′-dioxo-N-(2,4,6-trifluorobenzyl)-1′,4′,5′,11′-tetrahydro-3′H,4H,7′H-spiro[isoxazole-5,6′-[2,7]methanopyrido[1,2-a][1,4]diazonine]-10′-carboxamide]
- RLUC 50% HS Shift: 143×

Compound: [2H]C1C(OC)=NO[C@@]12CC[C@H](C)N1C[C@H]2n2cc(C(=O)NCc3c(F)cc(F)cc3F)c(=O)c(O)c2C1=O (stereo partly drawn) [Example 83, (3′S,5S,7′R)-12′-hydroxy-3-methoxy-3′-methyl-1′,11′-dioxo-N-(2,4,6-trifluorobenzyl)-1′,4′,5′,11′-tetrahydro-3′H,4H,7′H-spiro[isoxazole-5,6′-[2,7]methanopyrido[1,2-a][1,4]diazonine]-4-d-10′-carboxamide]
- RLUC 50% HS Shift: 137×

Compound: COC1=NO[C@@]2(CC[C@H](C)N3C[C@H]2n2cc(C(=O)NCc4c(F)cc(F)cc4F)c(=O)c(O)c2C3=O)[C@H]1O [Example 84, (3′S,4R,5R,7′R)-4,12′-dihydroxy-3-methoxy-3′-methyl-1′,11′-dioxo-N-(2,4,6-trifluorobenzyl)-1′,4′,5′,11′-tetrahydro-3′H,4H,7′H-spiro[isoxazole-5,6′-[2,7]methanopyrido[1,2-a][1,4]diazonine]-10′-carboxamide]
- RLUC 50% HS Shift: 74×

Compound: COC1=NO[C@@]2(CC[C@H](C)N3C[C@H]2n2cc(C(=O)NCc4c(F)cc(F)cc4F)c(=O)c(O)c2C3=O)[C@H]1C [Example 85, (3′S,4R,5S,7′R)-12′-hydroxy-3-methoxy-3′,4-dimethyl-1′,11′-dioxo-N-(2,4,6-trifluorobenzyl)-1′,4′,5′,11′-tetrahydro-3′H,4H,7′H-spiro[isoxazole-5,6′-[2,7]methanopyrido[1,2-a][1,4]diazonine]-10′-carboxamide]
- RLUC 50% HS Shift: 144×

Compound: COC1=NO[C@@]2(CC[C@H](C)N3C[C@H]2n2cc(C(=O)NCc4c(F)cc(F)cc4F)c(=O)c(O)c2C3=O)[C@@H]1F [Example 86, (3′S,4S,5R,7′R)-4-fluoro-12′-hydroxy-3-methoxy-3′-methyl-1′,11′-dioxo-N-(2,4,6-trifluorobenzyl)-1′,4′,5′,11′-tetrahydro-3′H,4H,7′H-spiro[isoxazole-5,6′-[2,7]methanopyrido[1,2-a][1,4]diazonine]-10′-carboxamide]
- RLUC 50% HS Shift: 228×

Compound: COC1=NO[C@@]2(CC[C@H](C)N3C[C@H]2n2cc(C(=O)NCc4c(F)cc(F)cc4F)c(=O)c(O)c2C3=O)[C@H]1F [Example 87, (3′S,4R,5R,7′R)-4-fluoro-12′-hydroxy-3-methoxy-3′-methyl-1′,11′-dioxo-N-(2,4,6-trifluorobenzyl)-1′,4′,5′,11′-tetrahydro-3′H,4H,7′H-spiro[isoxazole-5,6′-[2,7]methanopyrido[1,2-a][1,4]diazonine]-10′-carboxamide]
- RLUC 50% HS Shift: 159×

Compound: C[C@H]1CC[C@@]2(ON=C(CF)[C@@H]2O)[C@H]2CN1C(=O)c1c(O)c(=O)c(C(=O)NCc3c(F)cc(F)cc3F)cn12 [Example 88, (3′S,4S,5R,7′R)-3-(fluoromethyl)-4,12′-dihydroxy-3′-methyl-1′,11′-dioxo-N-(2,4,6-trifluorobenzyl)-1′,4′,5′,11′-tetrahydro-3′H,4H,7′H-spiro[isoxazole-5,6′-[2,7]methanopyrido[1,2-a][1,4]diazonine]-10′-carboxamide]
- RLUC 50% HS Shift: 933×

Compound: C[C@H]1CC[C@@]2(ON=C(CF)[C@@H]2O)[C@H]2CN1C(=O)c1c(O)c(=O)c(C(=O)NCc3ccc(F)cc3F)cn12 [Example 89, (3′S,4S,5R,7′R)—N-(2,4-difluorobenzyl)-3-(fluoromethyl)-4,12′-dihydroxy-3′-methyl-1′,11′-dioxo-1′,4′,5′,11′-tetrahydro-3′H,4H,7′H-spiro[isoxazole-5,6′-[2,7]methanopyrido[1,2-a][1,4]diazonine]-10′-carboxamide]
- RLUC 50% HS Shift: 160×

Compound: CC1=NO[C@@]2(CC[C@H](C)N3C[C@H]2n2cc(C(=O)NCc4ccc(F)cc4F)c(=O)c(O)c2C3=O)O1 [Example 91, (3′S,5R,7′R)—N-(2,4-difluorobenzyl)-12′-hydroxy-3,3′-dimethyl-1′,11′-dioxo-1′,4′,5′,11′-tetrahydro-3′H,7′H-spiro[[1,4,2]dioxazole-5,6′-[2,7]methanopyrido[1,2-a][1,4]diazonine]-10′-carboxamide]
- RLUC 50% HS Shift: 789×

Compound: CC1=NO[C@@]2(CC[C@H](C)N3C[C@H]2n2cc(C(=O)NCc4c(F)cc(F)cc4F)c(=O)c(O)c2C3=O)O1 [Example 92, (3′S,5R,7′R)-12′-hydroxy-3,3′-dimethyl-1′,11′-dioxo-N-(2,4,6-trifluorobenzyl)-1′,4′,5′,11′-tetrahydro-3′H,7′H-spiro[[1,4,2]dioxazole-5,6′-[2,7]methanopyrido[1,2-a][1,4]diazonine]-10′-carboxamide]
- RLUC 50% HS Shift: 2047×
